Source: US20240207224A1, “MACROCYCLIC CHALCONE-AMIDE DERIVED ANTIVIRAL AGENTS” (priority 2022, published 2024)

Tested on: SARS-CoV-2 replicon
Test: SARS-CoV-2 Replicon Assay (Huh-7)
Settings: read-out: SARS-COV-2 replicon EC50; HuH-7 cells, Renilla luciferase reporter, approximately 20 hours
Experimental: White 384-well tissue-culture-treated clear-bottom plates are used in this assay. Using a Labcyte ECHO liquid dispenser, 3-fold serial dilutions of compounds suspended in DMSO are added to the inner 308 wells in duplicate in a total volume of 125 nL per well. Two columns are treated only with 125 nL DMSO, to be used as controls. […] HuH-7 cells at 1E7 cells/mL without RNA are electroporated as a low control. For each 100 μL electroporated cell suspension, 1150 μL pre-warmed (37° C.) media (DMEM, 1×GlutaMAX, 10% FBS) is added to the cells for a final concentration of 800 cells/μL. The electroporated cells are seeded into the 308 inner compound and control wells of the 384-well plate at 20,000 cells per well in a total volume of 25 μL. […] 25 μL of room temperature 1×Renilla-Glo Luciferase Assay Reagent (Promega) are added to each well and incubated at room temperature for 10 minutes and luminescence was measured on a Perkin Elmer EnVision. The Renilla-Glo reagent quantifies the amount of luciferase activity, which gives a measure of replicon activity present. The half-maximal effective concentration (EC50) was determined using GraphPad Prism. Percent residual activity of the replicon is determined after normalizing the curve to the mean RLU high control at 100% and the mean RLU low control at 0%. […]

SMILES: COC(=O)/C=C/C(=O)NNC(=O)CCc1ccc2cc1C(=O)N[C@H](C)c1cc(cc3c1CCCC3)CCCCCN(C)C2=O
- EC50: 1 to 10 µM
